Measured values from several laboratories, pooled; numbers as filed in NIAID ChemDB.

Shared fields: tests in culture; species: Aspergillus flavus

Zone: diameter of growth inhibition. An empty or dashed field is not shown. A number after MIC or MFC names an inhibition level or a share of isolates. Neighbouring rows are from separate reports. a–b is a range or a potency band.

{"structure": "CCC(C)CC(C)CCCCCCCCC(=O)N[C@H]1C[C@@H](O)[C@H](NCCN)NC(=O)[C@@H]2[C@@H](O)CCN2C(=O)[C@H]([C@H](O)CCN)NC(=O)[C@H]([C@H](O)[C@@H](O)c2ccc(O)cc2)NC(=O)[C@@H]2C[C@@H](O)CN2C(=O)[C@H]([C@@H](C)O)NC1=O", "measure": "MIC90", "value": "0.03–0.25 µg/mL"}
{"structure": "COc1ccc(/C=C2\\SC(N(C)C)=NC2=O)cc1", "strain": "ATCC 9170", "method": "broth dilution", "measure": "MIC100", "value": ">250 µg/mL"}
{"structure": "CCCCc1nc(Cl)c(-c2cc(-c3cccc4ccccc34)nc3c2C(=O)c2ccccc2-3)n1Cc1ccccc1", "strain": "MTCC 8188", "tested at": "10 µg/disc", "method": "agar diffusion", "measure": "zone", "value": "5 mm"}
{"structure": "COc1cccc(C=O)c1OC", "strain": "NRRL3357", "method": "agar", "measure": "MIC", "value": "3000 µM"}
{"structure": "Cc1ccc2nc(Cl)c(CNc3ccc(F)c(Cl)c3)cc2c1", "strain": "MTCC 277", "tested at": "200 µg/mL", "method": "agar diffusion", "measure": "zone", "value": "15.83 mm"}
{"structure": "COc1cc(C(C)=O)ccc1O", "method": "agar", "measure": "MIC100", "value": ">1000 µg/mL"}
{"structure": "O=C(N/N=C\\n1ccnc1)c1ccccc1", "method": "broth dilution", "measure": "MIC50", "value": ">1167 µM"}
{"structure": "COc1cc(C=O)cc(OC)c1", "strain": "NRRL3357", "method": "agar", "measure": "MIC", "value": "1500 µM"}
{"structure": "CCCCc1nc(Cl)c(-c2cc(-c3cccc(Br)n3)nc3c2C(=O)c2ccccc2-3)n1Cc1ccccc1", "strain": "MTCC 8188", "tested at": "10 µg/disc", "method": "agar diffusion", "measure": "zone", "value": "9 mm"}
{"structure": "CC1=C(Nc2ccccc2)C(=O)c2ccccc2C1=O", "strain": "MTCC 277", "method": "broth dilution", "measure": "MIC100", "value": "125 µg/mL"}
{"structure": "CC(O)CCCNc1ccc2ncccc2c1", "method": "turbidity", "measure": "MIC50", "value": "62.5 µg/mL"}
{"structure": "C=CCc1ccc(O)c(OC)c1", "strain": "NRRL 501", "method": "broth dilution", "measure": "MIC", "value": "160 µg/mL"}
{"structure": "CC(C)=CCC/C(C)=C/CO", "strain": "NRRL 501", "method": "broth dilution", "measure": "MFC", "value": "288 µg/mL"}
{"structure": "CN(C)C1=NC(=O)/C(=C/c2ccc(F)cc2)S1", "strain": "ATCC 9170", "method": "broth dilution", "measure": "MIC100", "value": ">250 µg/mL"}
{"structure": "C[C@H]1[C@H](O)[C@@H](C)/C=C/C=C/C=C/C=C/C=C/C=C/C=C/[C@H](O[C@@H]2O[C@H](C)[C@@H](O)[C@H](N)[C@@H]2O)C[C@@H]2O[C@](O)(C[C@@H](O)C[C@@H](O)CC[C@H](O)[C@@H](O)C[C@@H](O)CC(=O)O[C@H]1C)C[C@H](O)[C@H]2C(=O)O", "method": "turbidity", "measure": "MIC50", "value": "3.1 µg/mL"}
{"structure": "C/C=C/c1ccc(O)c(OC)c1", "method": "agar", "measure": "MIC100", "value": "301 µg/mL"}
{"structure": "Oc1cccc2cccnc12", "tested at": "25 µg/mL", "method": "agar", "measure": "zone", "value": "19 mm"}
{"structure": "C[C@H]1[C@H](O)[C@@H](C)/C=C/C=C/C=C/C=C/C=C/C=C/C=C/[C@H](O[C@@H]2O[C@H](C)[C@@H](O)[C@H](N)[C@@H]2O)C[C@@H]2O[C@](O)(C[C@@H](O)C[C@@H](O)CC[C@H](O)[C@@H](O)C[C@@H](O)CC(=O)O[C@H]1C)C[C@H](O)[C@H]2C(=O)O", "strain": "ITCC 1634", "method": "broth dilution", "measure": "MIC", "value": "0.97 µg/mL"}
{"structure": "CCCCc1nc(Cl)c(-c2cc(-c3ccco3)nc3c2C(=O)c2ccccc2-3)n1Cc1ccccc1", "strain": "MTCC 8188", "tested at": "10 µg/disc", "method": "agar diffusion", "measure": "zone", "value": "10 mm"}
{"structure": "CCOC=C1C(=O)NC(=S)NC1=O", "tested at": "10000 µg/mL", "method": "agar diffusion / agar", "measure": "zone", "value": "0 mm"}
{"structure": "Nc1ccc(S(N)(=O)=O)cc1", "tested at": "25 µg/mL", "method": "agar diffusion / agar", "measure": "zone", "value": "22 mm"}
{"structure": "COc1cc(C(=O)O)cc(OC)c1O", "method": "agar", "measure": "MIC100", "value": ">1000 µg/mL"}
{"structure": "COc1ccccc1C=O", "strain": "NRRL3357", "method": "agar", "measure": "MIC", "value": "2500 µM"}
{"structure": "C[C@@H]1[C@H](O)[C@@H](C)/C=C/C=C/CC/C=C/C=C/C=C/C=C/C(O[C@H]2O[C@H](C)[C@@H](O)[C@H](N)[C@@H]2O)CC2O[C@](O)(CC(O)C(O)CCC(O)CC(O)CC(O)CC(=O)O[C@H]1C)CC(O)C2C(=O)O", "strain": "MTCC 8188", "tested at": "10 µg/disc", "method": "agar diffusion", "measure": "zone", "value": "9 mm"}
{"structure": "CCNC1=CC(=O)c2ccccc2C1=O", "strain": "MTCC 277", "method": "broth dilution", "measure": "MIC100", "value": "500 µg/mL"}
{"structure": "CCCCCOc1ccc(-c2cc(-c3ccc(C(=O)N[C@H]4C[C@@H](O)[C@@H](O)NC(=O)[C@@H]5[C@@H](O)[C@@H](C)CN5C(=O)[C@H]([C@H](O)CC(N)=O)NC(=O)[C@H]([C@H](O)[C@@H](O)c5ccc(O)c(OS(=O)(=O)O)c5)NC(=O)[C@@H]5C[C@@H](O)CN5C(=O)[C@H]([C@@H](C)O)NC4=O)cc3)no2)cc1", "measure": "MIC90", "value": "0.03 µg/mL"}
{"structure": "O=C(N/N=C\\n1ccnc1)c1ccc(Cl)cc1", "method": "broth dilution", "measure": "MIC50", "value": ">1010 µM"}
{"structure": "CC1=CC(=O)c2c(O)cccc2C1=O", "strain": "CCAM 080001", "method": "broth dilution", "measure": "MFC100", "value": "20 µg/mL"}
{"structure": "COc1cc(C2c3c(nc(N)c(C#N)c3N)Oc3[nH]c(=S)[nH]c(=O)c32)cc(OC)c1OC", "tested at": "10000 µg/mL", "method": "agar diffusion / agar", "measure": "zone", "value": "0 mm"}
{"structure": "COc1cc(C)ccc1O", "method": "agar", "measure": "MIC50", "value": "267 µg/mL"}
{"structure": "COc1ccc([Se][Se]c2ccc(OC)cc2)cc1", "method": "broth dilution", "measure": "MFC", "value": ">64 µg/mL"}
{"structure": "Cc1cc(O)c(C(=O)/C=C/c2ccc(O)cc2)c(=O)o1", "tested at": "125 µg/disc", "method": "agar diffusion", "measure": "zone", "value": "10 mm"}
{"structure": "C[C@@H](c1ncncc1F)[C@](O)(Cn1cncn1)c1ccc(F)cc1F", "measure": "MIC90", "value": "0.5–2 µg/mL"}
{"structure": "CC(O)CCCNc1cnc2ccccc2c1", "method": "turbidity", "measure": "MIC50", "value": "31.3 µg/mL"}
{"structure": "[Al]#[P]", "method": "agar", "measure": "MFC", "value": ">5 µg/mL"}
{"structure": "Nc1[nH]c(=O)ncc1F", "measure": "MIC90", "value": ">64 µg/mL"}
{"structure": "COc1cc(C2C(C#N)=C(N)Oc3[nH]c(=S)[nH]c(=O)c32)cc(OC)c1OC", "tested at": "10000 µg/mL", "method": "agar diffusion / agar", "measure": "zone", "value": "0 mm"}
{"structure": "CN(C/C=C/C#CC(C)(C)C)Cc1cccc2ccccc12", "method": "broth dilution / agar", "measure": "MIC100", "value": "200 µg/mL"}
{"structure": "C[C@@H]1[C@H](O)[C@@H](C)/C=C/C=C/CC/C=C/C=C/C=C/C=C/C(O[C@H]2O[C@H](C)[C@@H](O)[C@H](N)[C@@H]2O)CC2O[C@](O)(CC(O)C(O)CCC(O)CC(O)CC(O)CC(=O)O[C@H]1C)CC(O)C2C(=O)O", "method": "agar diffusion", "measure": "MIC", "value": "8 µg/mL"}
{"structure": "Cc1cccc(NCc2cc3cc(C)ccc3nc2Cl)c1", "strain": "MTCC 277", "tested at": "200 µg/mL", "method": "agar diffusion", "measure": "zone", "value": "6.1 mm"}
{"structure": "C[C@H]1[C@H](O)[C@@H](C)/C=C/C=C/C=C/C=C/C=C/C=C/C=C/[C@H](O[C@@H]2O[C@H](C)[C@@H](O)[C@H](N)[C@@H]2O)C[C@@H]2O[C@](O)(C[C@@H](O)C[C@@H](O)CC[C@H](O)[C@@H](O)C[C@@H](O)CC(=O)O[C@H]1C)C[C@H](O)[C@H]2C(=O)O", "strain": "ATCC 9170", "method": "broth dilution", "measure": "MIC100", "value": "0.5 µg/mL"}
{"structure": "Cc1ccc2nc(Cl)c(CN3CCN(C)CC3)cc2c1", "strain": "MTCC 277", "tested at": "200 µg/mL", "method": "agar diffusion", "measure": "zone", "value": "7.21 mm"}
{"structure": "CCCCc1nc(Cl)c(-c2cc(-c3ccccc3)nc3c2C(=O)c2ccccc2-3)n1Cc1ccccc1", "strain": "MTCC 8188", "tested at": "10 µg/disc", "method": "agar diffusion", "measure": "zone", "value": "8 mm"}
{"structure": "S=C(N/N=C/c1cnc[nH]1)Nc1ccccc1", "method": "broth dilution", "measure": "MIC50", "value": ">1020 µM"}
{"structure": "Cc1ccc2nc(Cl)c(CNc3ccc(Cl)cc3)cc2c1", "strain": "MTCC 277", "tested at": "200 µg/mL", "method": "agar diffusion", "measure": "zone", "value": "10.8 mm"}

A second listing of 4 rows from above:

| structure | strain | tested at | method | measure | value |
|---|---|---|---|---|---|
| CCOC=C1C(=O)NC(=S)NC1=O | - | 10000 µg/mL | agar diffusion / agar | zone | 0 mm |
| Cc1cccc(NCc2cc3cc(C)ccc3nc2Cl)c1 | MTCC 277 | 200 µg/mL | agar diffusion | zone | 6.1 mm |
| C[C@@H](c1ncncc1F)[C@](O)(Cn1cncn1)c1ccc(F)cc1F | - | - | - | MIC90 | 0.5–2 µg/mL |
| CC1=C(Nc2ccccc2)C(=O)c2ccccc2C1=O | MTCC 277 | - | broth dilution | MIC100 | 125 µg/mL |